Test system: AB943 primary human dermal fibroblast cell line
Assay: Cytotoxicity, Alamar Blue
Type: cell-based
Conditions: CC50 on AB943 fibroblasts / IC50 on 3D7
Procedure: Cells were seeded in 96-well plates (20,000 cells/mL) and incubated for 24 h, then treated with the drug for 72 h. […] Fluorescent viable cells were monitored after 5 h of incubation at 37 °C at a wavelength of 530 nm for excitation and 590 nm for emission in an FL600 luminescence spectrometer (Biotek, Colmar, France).

Substance	Selectivity Index CC50/IC50
pinocembrin [Compound 8]	1.3
alpinetin [Compound 7]	1.4

From publication PMC9656727, “Biodereplication of Antiplasmodial Extracts: Application of the Amazonian Medicinal Plant Piper coruscans Kunth” (Molecules, 2022)
